Anti-infective test results gathered from many reports (values: NIAID ChemDB through PubChem).

Shared fields: enzyme or target tests; agent: HIV-1; protein: Reverse transcriptase

Blank or dashed fields: not listed here. Two numbers with a dash give a range or band. ICn: concentration for n% inhibition. Lines come from different laboratories, so protocols vary.

structure	mutations	strain or isolate	read-out	read by	value
CCN1c2ncc(CCOc3ccc(-c4cc(C(=O)O)on4)cc3)cc2C(=O)N(C)c2cccnc21	RT-K103N Y181C	IIIB	IC50	nucleotide incorporation / radiometric	>0.1 µM
CC(C)(C)c1ccc(-n2nnnc2SCC(=O)Nc2ccc(OCC(=O)N3CCOCC3)cc2Cl)c(Cl)c1	-	WT	IC50	PicoGreen / fluorescence	<1 µM
CCN1c2ncc(CCOc3ccc(C(=O)Nc4ccc(C(=O)O)cc4)cc3C)cc2C(=O)N(C)c2cccnc21	RT-K103N Y181C	IIIB	IC50	nucleotide incorporation / radiometric	<0.05 µM
CCNC(=O)N1CCc2c(OCCc3cnc4c(c3)C(=O)N(C)c3cccnc3N4CC)ccc(C(=O)O)c2C1	RT-Y188L	-	IC50	nucleotide incorporation / radiometric	>1 µM
CCC(C#Cc1ccc(NC(=O)CSc2nnnn2-c2ccc(C3CC3)cc2Cl)c(Cl)c1)(CC)NC(=O)OC(C)(C)C	RT-K103 Y181C	-	IC50	PicoGreen / fluorescence	<1 µM
CCN1c2ncc(CCOc3ccc4cc(C(=O)NC(C)(C)C(=O)O)ccc4c3)cc2C(=O)N(C)c2cccnc21	RT-V106A	-	IC50	nucleotide incorporation / radiometric	0.1–1 µM
CCN1c2ncc(CCOc3ccc(-c4cc(C(=O)O)ccc4F)cc3C)cc2C(=O)N(C)c2cccnc21	RT-K103N Y181C	IIIB	IC50	nucleotide incorporation / radiometric	0.05–0.1 µM
CC(C)(C)c1ccc(-n2nnnc2SCC(=O)Nc2ccc(-c3ccc(OCCN4CCCC4)cc3)cc2Cl)c(Cl)c1	-	WT	IC50	PicoGreen / fluorescence	<1 µM
CCN1c2ncc(CCOc3ccc(C(=O)Nc4ccccc4C(=O)O)cc3C)cc2C(=O)N(C)c2cccnc21	RT-K103N Y181C	IIIB	IC50	nucleotide incorporation / radiometric	>0.1 µM
CC(C)(C#Cc1ccc(NC(=O)CSc2nnnn2-c2ccc(C3CC3)cc2Cl)c(Cl)c1)OCCN1CCCC1=O	RT-K103 Y181C	-	IC50	PicoGreen / fluorescence	<1 µM
CCN1c2ncc(CCOc3ccc(CC(=O)O)c4ccccc34)cc2C(=O)N(C)c2ccc(C)nc21	RT-Y188L	-	IC50	nucleotide incorporation / radiometric	>1 µM
CCN1c2ncc(CCOc3ccc(-c4ccc(C(=O)O)cn4)cc3C)cc2C(=O)N(C)c2cccnc21	-	IIIB	IC50	nucleotide incorporation / radiometric	<0.05 µM
c1coc(-c2nnc3c4ccccc4c(N4CCc5ccccc5C4)nn23)c1	-	98US_MSC5016	IC90	RT activity / fluorescence	1.55 µM
CCN1c2ncc(CCOc3ccc(-c4ccnc(C)c4)cc3C)cc2C(=O)N(C)c2cccnc21	-	IIIB	IC50	nucleotide incorporation / radiometric	<0.05 µM
Cc1ccc(-n2nnnc2SCC(=O)Nc2ccc(-c3csc(N)n3)cc2Cl)c(Cl)c1	RT-K103 Y181C	-	IC50	PicoGreen / fluorescence	<1 µM
FC(F)(F)Cc1nnc2c3ccccc3c(N3CCc4ccccc4C3)nn12	-	98US_MSC5016	IC50	RT activity / fluorescence	0.9 µM
CCN1c2ncc(CCOc3ccc(/C=C(\C)C(=O)O)c4ccccc34)cc2C(=O)Nc2c(C)ccnc21	RT-Y188L	-	IC50	nucleotide incorporation / radiometric	>1 µM
CC(C)(N)C#Cc1ccc(NC(=O)CSc2nnnn2-c2cc(C(F)(F)F)ccc2Cl)c(Cl)c1	-	WT	IC50	PicoGreen / fluorescence	<1 µM
CCN1c2ncc(CCOc3ccc(/C=C/C(=O)O)c4ccccc34)cc2C(=O)Nc2c(C)ccnc21	-	WT	IC50	nucleotide incorporation / radiometric	<0.1 µM
COc1ccc(CC(=O)Nc2ccc(NC(=O)CSc3nnnn3-c3ccc(C(C)(C)C)cc3Cl)c(Cl)c2)cc1	RT-K103 Y181C	-	IC50	PicoGreen / fluorescence	<1 µM
CCN1c2ncc(CCOc3ccc(-c4cc(CC(=O)O)ccc4OC)cc3C)cc2C(=O)N(C)c2cccnc21	-	IIIB	IC50	nucleotide incorporation / radiometric	<0.05 µM
CCN1c2ncc(CCOc3ccc(CC(=O)O)c4ccccc34)cc2C(=O)N(C)c2ccc(Cl)nc21	-	WT	IC50	nucleotide incorporation / radiometric	<0.1 µM
FC(F)(F)c1nnc2c3ccccc3c(N3CCc4ccccc4C3)nn12	-	IIIB	IC50	RT activity / fluorescence	0.31 µM
CC(C)(C#Cc1ccc(NC(=O)CSc2nnnn2-c2cc(C(C)(C)C)cc(Br)c2Cl)c(Cl)c1)NC(=O)CN=c1ccn(O)cc1	RT-K103 Y181C	-	IC50	PicoGreen / fluorescence	<1 µM
c1ccc2c(c1)CCN(c1nn3c(C4CC4)nnc3c3ccccc13)C2	-	KER2008	IC50	RT activity / fluorescence	0.93 µM
CC(C)(C)c1ccc(-n2nnnc2SCC(=O)Nc2ccc(NS(=O)(=O)c3ccccc3)cc2Cl)c(Cl)c1	RT-K103 Y181C	-	IC50	PicoGreen / fluorescence	<1 µM
CCN1c2ncc(CCOc3ccc(C(=O)N(C)c4ccc(C(=O)O)cc4)cc3C)cc2C(=O)N(C)c2cccnc21	RT-K103N Y181C	IIIB	IC50	nucleotide incorporation / radiometric	0.05–0.1 µM

A second listing of 3 rows from above:

structure	mutations	strain or isolate	read-out	read by	value
CCN1c2ncc(CCOc3ccc(/C=C/C(=O)O)c4ccccc34)cc2C(=O)Nc2c(C)ccnc21	-	WT	IC50	nucleotide incorporation / radiometric	<0.1 µM
CCN1c2ncc(CCOc3ccc(C(=O)Nc4ccccc4C(=O)O)cc3C)cc2C(=O)N(C)c2cccnc21	RT-K103N Y181C	IIIB	IC50	nucleotide incorporation / radiometric	>0.1 µM
CC(C)(C#Cc1ccc(NC(=O)CSc2nnnn2-c2ccc(C3CC3)cc2Cl)c(Cl)c1)OCCN1CCCC1=O	RT-K103 Y181C	-	IC50	PicoGreen / fluorescence	<1 µM